Pooled drug test results. Numbers come from NIAID ChemDB, via PubChem.

Shared fields: tests in culture; organism: HIV-1; read-out: EC50

ECn is the concentration giving n% inhibition of infection, replication or growth.

SMILES,strain,changes,cell line,method,conditions,value
Nc1ncnc2c1ncn2CCOCP(=O)(O)O,HXB2-D (RT K65R M184V),RT-K65R M184V,CBMC,p24,,5.01 ± 0.7 µM
Cc1cn([C@H]2C[C@H](N=[N+]=[N-])[C@@H](CO)O2)c(=O)[nH]c1=O,A012B Clinical isolate,,HT4 + HT4-6C,plaque count,,0.01 µM
Cc1ccc(-n2c(C)nnc2SCC(=O)Nc2ccc(C)cc2Br)cc1,NL4-3,RT-K103N Y181C,HeLa + HeLa-JC53,luciferase,,0.1 µM
C[C@H]1/C=C/[C@@]2(C)CC[C@@H](C(C)(C)O)[C@@H]2[C@@H](O)C[C@](C)(O)/C=C/C1,95BRRJ021 R5,,U87 (CD4+ CCR5+ CXCR4+) + U87,cytopathic effect / XTT,,~9 µM
Cc1cn([C@H]2C[C@H](N=[N+]=[N-])[C@@H](CO)O2)c(=O)[nH]c1=O,LJM (subtype B),,PBMCs,p24 / ELISA / antigen,4 d,0.33 µM
Cc1occc1C(=S)Nc1ccc(Cl)c(/C=N/OC(C)(C)C)c1,Calanolide A-resistant (RT T139I),RT-T139I,CEM + CEM-SS,XTT,,0.3 µM
CCCc1cc(=O)oc2c3c(c4c(c12)OC(C)(C)C=C4)O[C@@H](C)[C@H](C)[C@@H]3O,IIIB,,CEM + CEM-SS,cytopathic effect / XTT,,0.5 µM
CONc1ccn([C@H]2C[C@H](N=[N+]=[N-])[C@@H](CO)O2)c(=O)n1,LAV-Bru,,CEM-C113 + CEM/C113,cytopathic effect / MTT,,30 µM
Cc1cc(C)cc(S(=O)(=O)c2c(C(=O)NNCCO)[nH]c3ccc(Cl)cc23)c1,BAL R5,,Macrophage + Macrophages,p24,,0.02 µM
Nc1ncnc2c1ncn2[C@@H]1O[C@H](OCP(=O)(O)O)C=C1F,UG-92-024 (subtype D),,PBMCs,p24 / ELISA / antigen,4 d,12.6 µM
Cc1cc(Cl)cc(S(=O)(=O)c2cccc(N)c2C#N)c1,,RT-K103N P225H,HeLa + HELA CD4+,β-galactosidase,,19 µM
Cc1ccnc2c1NC(=O)c1cccnc1N2C1CC1,NL4-3,,Primary T lymphocytes,,,1.017 µM
Cc1cn([C@H]2C[C@H](N=[N+]=[N-])[C@@H](CO)O2)c(=O)[nH]c1=O,3TC-resistant (RT M184V),RT-M184V,CEM + CEM-SS,XTT,,0.02 µM
Clc1nc(Cl)c2[nH]cnc2n1,,,CD4+HELA + HeLa,p24,,2.2 µM
CCn1nc(Cc2cccc(C#N)c2)cc1C1CCN(C[C@H]2CN([C@@H](C(=O)O)C(C)C)C[C@@H]2c2cccc(F)c2)CC1,BaL,,HeLa,β-galactosidase,50% human serum,<0.1 µM
O=C(N[C@H]1c2ccccc2C[C@H]1O)[C@H](Cc1ccccc1)C[C@H](O)CN1C(=O)[C@@H](Cc2cccnc2)C[C@@H]1Cc1ccccc1,,,MT-4 + MT4,,,0.21 µM
CCCOc1ccc(Cc2cc(C3CCN(C[C@H]4CN([C@@H](C(=O)O)[C@H](C)CC)C[C@@H]4c4cccc(F)c4)CC3)n(CC)n2)cc1,BaL,,HeLa,β-galactosidase,,<0.0012 µM
Cc1nnc(C(=O)NC(C)(C)c2nc(C(=O)NCc3ccc(F)cc3)c(O)c(=O)n2C)o1,NL4-3,,MDM,,,0.022 µM
O=C(NCc1ccc(F)cc1)c1nc(N2CCCCS2(=O)=O)c2cccnc2c1O,,INTG-S153Y N155S,,p24,,0.088 µM
CC(=O)O[C@H](C(=O)NCc1ccccc1)[C@H](OC(C)=O)C(=O)NCc1ccccc1,Z2Z6,,PM1,cytopathic effect / MTT,,>100 µM
CCOC(=O)[C@H](C)N[P@](=O)(CO[C@@H]1C=C(F)[C@H](n2cnc3c(N)ncnc32)O1)Oc1ccccc1,,,Macrophages,p24 / ELISA / antigen,,0.051 µM
Cc1cn([C@H]2C[C@H](N=[N+]=[N-])[C@@H](CO)O2)c(=O)[nH]c1=O,HxB2D(RT-D67G),RT-D67G,CBMC,RT activity,,0.0021 µM
O=C(NCc1ccccc1)[C@@H](O)[C@H](O)C(=O)NCc1ccccc1,Z2Z6,,PM1,cytopathic effect / MTT,,>100 µM
O=C(O)P(=O)(O)O,8684 CLADE C CLADE C,,PBMC,p24,,18.6 µM
Cc1ccnc2c1NC(=O)c1cccnc1N2C1CC1,4XAZT+L100I,,CEM + CEM-SS,cytopathic effect / XTT,,0.03 µM
C[C@H](Cn1cnc2c(N)ncnc21)OCP(=O)(O)O,LJM (subtype B),,PBMCs,p24 / ELISA / antigen,4 d,2 µM
CCCc1cc(=O)oc2c3c(c4c(c12)OC(C)(C)C=C4)O[C@H](C)[C@@H](C)[C@@H]3O,Nevirapine-resistant (RT Y181C),RT-Y181C,CEM + CEM-SS,XTT,,<0.01 µM
CCCCCCCCCCCCCC(=O)OC[C@H](COP(=O)(O)OP(=O)(O)OC[C@@H]1CC[C@H](n2cc(C)c(=O)[nH]c2=O)O1)OC(=O)CCCCCCCCCCCCC,AZT-resistant A012D Clinical isolate,,HT4 + HT4-6C,plaque count,,20 µM
Cc1cn([C@H]2C=C[C@@H](CO)O2)c(=O)[nH]c1=O,NL4-3 WT,,MAGI (CCR5) + MAGI,β-galactosidase,,0.25 µM
COC(=O)[C@H](C)NP(=O)(OC[C@@H]1CC[C@H](n2cnc3c(N)ncnc32)O1)Oc1ccccc1,IIIB,,MOLT-4/C8 + MOLT-4,syncytia,,0.016 µM
CCn1nc(Cc2ccc(OC(C)(C)C)cc2)cc1C1CCN(C[C@H]2CN([C@@H](C(=O)O)C(C)C)C[C@@H]2c2cccc(F)c2)CC1,BaL,,HeLa,β-galactosidase,50% human serum,<0.1 µM
Cc1occc1C(=S)Nc1ccc(Cl)c(/C=N/OC(C)(C)C)c1,IIIB,,CEMx174 + CEM,cytopathic effect / XTT,,0.6 µM
Nc1ncnc2c1ncn2[C@H]1C=C[C@@H](CO)O1,IIIB,,MOLT-4/C8 + MOLT-4,syncytia,,30 µM
CCOC(=O)[C@H](C)NC(=O)[C@@H](O)[C@H](O)C(=O)N[C@@H](C)C(=O)OCC,Z2Z6,,PM1,cytopathic effect / MTT,,>100 µM
O=c1[nH]cnc2c1ncn2[C@H]1CC[C@@H](CO)O1,MN,,PBL,p24,,0.38 µM
O=c1c2ccccc2n2nnc3ccc(NCCCN4CCN(CCCNc5ccc6nnn7c8ccccc8c(=O)c5c67)CC4)c1c32,Nevirapine-resistant,,PBL,p24,,0.01 µM
Cc1cc(Br)cc(S(=O)(=O)c2cccc(N)c2C#N)c1,,RT-L100I K103N,HeLa + HELA CD4+,β-galactosidase,,3 µM
O=C1N(Cc2ccc(CO)cc2)[C@H](Cc2ccccc2)[C@H](O)[C@@H](O)[C@@H](Cc2ccccc2)N1Cc1ccc(CO)cc1,Clinical isolate W,,PBMC,p24,,0.04 µM
Nc1nc(NC2CC2)c2ncn([C@H]3C=C[C@@H](CO)C3)c2n1,NL4-3,+Vpx,Jurkat cells,,,0.059 µM
Cc1ccnc2c1NC(=O)c1cccnc1N2C1CC1,IIIB,,CEMx174 + CEM,XTT,,0.1 µM
CC(=O)N1CCC(C(=O)N(CCCN2CCC(Cc3ccc(C(N)=O)cc3)CC2)c2ccc(C)c(Cl)c2)CC1,R5 subtype E_2 recombinant,,U87 (CD4+ CCR5+) + U87,luciferase,,0.023 µM
CCOC(=O)[C@H](Cc1ccc(O)cc1)NC(=O)[C@@H](O)[C@H](O)C(=O)N[C@@H](Cc1ccc(O)cc1)C(=O)OCC,Z2Z6,,PM1,cytopathic effect / MTT,,50 µM
Cc1ccc(S(=O)(=O)c2c(C(=O)NNCCO)[nH]c3ccc(Cl)cc23)c(C)c1,BAL R5,,Macrophage + Macrophages,p24,,12 µM
Cc1ccc(-n2c(C)nnc2SCC(=O)Nc2ccc(S(N)(=O)=O)cc2Cl)c2ccccc12,NL4-3,RT-Y188L,HeLa + HeLa-JC53,luciferase,,0.02 µM
Nc1nc(=O)n([C@H]2CO[C@@H](CO)S2)cc1F,4170 (AZT-resistant),,CBMC,RT activity,,1.8 µM
Cc1[nH]c(=O)c(F)cc1Cn1cnc(C(F)(F)C(F)F)c(Oc2cc(C(F)F)cc(C#N)c2C)c1=O,,,MT4-GFP,GFP,,0.131 µM
Nc1nc(=O)n([C@@H]2CS[C@H](CO)O2)cc1F,LAI,E138A,TZM-bl,,,6 µM
C#C[C@@]1(CO)C=C[C@H](n2cc(C)c(=O)[nH]c2=O)O1,A012B WT,,MAGI (CCR5) + MAGI,β-galactosidase,,0.49 µM
Cc1cc(O)cc(S(=O)(=O)c2cccc(N)c2C#N)c1,,RT-V106A,HeLa + HELA CD4+,β-galactosidase,,0.013 µM
O=C1CN=C(c2ccc[nH]2)c2cc(Cl)ccc2N1,IIIB/LAI,,HUT-78/IIIB/LAI + HUT 78,virus yield,,1 µM
C[C@H](NC[C@@H](O)[C@H](O)CN[C@@H](C)c1ccccc1)c1ccccc1,Z2Z6,,PM1,cytopathic effect / MTT,,4 µM
CCc1ccc(-n2c(C)nnc2SCC(=O)Nc2ccccc2Br)c2ccccc12,NL4-3,RT-K103N Y181C,HeLa + HeLa-JC53,luciferase,,0.022 µM
COc1cc(C(F)(F)F)cc(S(=O)(=O)c2cccc(N)c2C#N)c1,,RT-V106A Y181C,HeLa + HELA CD4+,β-galactosidase,,0.42 µM
CCOc1ccc(Cc2cc(C3CCN(C[C@H]4CN([C@@H](C(=O)O)C(C)C)C[C@@H]4c4cccc(F)c4)CC3)n(CC)n2)cc1,BaL,,HeLa,β-galactosidase,,<0.0004 µM
CCCc1cc(=O)oc2c3c(c4c(c12)OC(C)(C)C=C4)O[C@@H](C)[C@H](C)[C@@H]3O,UC38-resistant (RT Y181C),RT-Y181C,CEM + CEM-SS,XTT,,<0.03 µM
C[C@@H](NC(=O)[C@@H](O)[C@H](O)C(=O)N[C@H](C)c1ccccc1)c1ccccc1,Z2Z6,,PM1,cytopathic effect / MTT,,>100 µM
Nc1nc(=O)n([C@@H]2CO[C@H](CO)S2)cc1F,HXB2D,,CBMC,RT activity,,4.25 µM
COc1ccc(-n2c(C)nnc2SCC(=O)Nc2ccccc2Br)c2ccccc12,NL4-3,RT-Y188L,HeLa + HeLa-JC53,luciferase,,0.46 µM
CCOC(=O)[C@@H](NC(=O)[C@@H](O)[C@H](O)C(=O)N[C@H](C(=O)OCC)C(C)C)C(C)C,Z2Z6,,PM1,cytopathic effect / MTT,,>100 µM
Cc1ccccc1Cc1cccc(C(=O)CC(=O)C(=O)O)c1,NL4-3,,,p24,,0.562 µM
O=C(N[C@H]1c2ccccc2C[C@H]1O)[C@H](Cc1ccccc1)C[C@H](O)CN1C(=O)[C@@H](Cc2ccccc2)C[C@@H]1Cc1ccccc1,,,MT-4 + MT4,,,0.32 µM
Nc1nc(=O)n([C@@H]2CS[C@H](CO)O2)cc1F,NL4-3,A114S,TZM-gfp,GFP,,0.54 µM
CCOC(=O)[C@H](CC(C)C)NC(=O)[C@@H](O)[C@H](O)C(=O)N[C@@H](CC(C)C)C(=O)OCC,Z2Z6,,PM1,cytopathic effect / MTT,,10 µM
C/C=C/CSc1cc(NC(=S)c2ccsc2C)ccc1Cl,Oxathiin carboxanilide-resistant RT L100I,RT-L100I,CEM + CEM-SS,cytopathic effect / XTT,,>2 µM
C[C@H](Cn1cnc2c(N)ncnc21)OCP(=O)(O)O,NL4-3,+Vpx,MDM,,,5.599 µM
Cc1cc(C#N)cc(C)c1Oc1nc(Nc2ccc(C#N)cc2)nc(N)c1Br,LAI,E138G,TZM-bl,,,0.0032 µM
Cc1cccc(S(=O)(=O)c2c(C(=O)NNCCO)[nH]c3ccc(Cl)cc23)c1,BAL R5,,Macrophage + Macrophages,p24,,2.1 µM
CCn1nc(Cc2ccc(OC3CC3)cc2)cc1C1CCN(C[C@H]2CN([C@@H](C(=O)O)C(C)(C)C)C[C@@H]2c2cccc(F)c2)CC1,BaL,,HeLa,β-galactosidase,50% human serum,<0.033 µM
CCc1c(C(=O)c2cc(C)cc(C)c2)n(CC2CC=CC2)c(=O)[nH]c1=O,BaL,,MM + M/M,cytopathic effect / XTT,clinical isolate,0.0003 µM
Nc1ccn([C@@H]2CO[C@H](CO)S2)c(=O)n1,HXB2,RT-M41L L74V V106A T215Y,C8166,p24,,8 µM
CC[C@H](C)[C@H](C(=O)O)N1C[C@H](CN2CCC(c3cc(Cc4ccc(-c5ccccc5)cc4)nn3CC)CC2)[C@@H](c2cccc(F)c2)C1,BaL,,HeLa,β-galactosidase,,<0.0004 µM
CC(C)(C)NC(=O)[C@@H]1C[C@@H]2CCCC[C@@H]2CN1C[C@@H](O)[C@H](Cc1ccccc1)NC(=O)[C@H](CC(N)=O)NC(=O)c1ccc2ccccc2n1,RF,PR-G48V L90M,C8166,p24,,0.02 µM
Nc1nc2c(ncn2COCCO)c(=O)[nH]1,CXCR4-tropic HIV pseudovirus,WT,PHA-activated CD4+ lymphoblasts,GFP,,5 µM

A second listing of 4 rows from above:

O=c1[nH]cnc2c1ncn2[C@H]1CC[C@@H](CO)O1 ; strain: MN ; cell line: PBL ; method: p24 ; value: 0.38 µM
Cc1cn([C@H]2C[C@H](N=[N+]=[N-])[C@@H](CO)O2)c(=O)[nH]c1=O ; strain: HxB2D(RT-D67G) ; changes: RT-D67G ; cell line: CBMC ; method: RT activity ; value: 0.0021 µM
CCCOc1ccc(Cc2cc(C3CCN(C[C@H]4CN([C@@H](C(=O)O)[C@H](C)CC)C[C@@H]4c4cccc(F)c4)CC3)n(CC)n2)cc1 ; strain: BaL ; cell line: HeLa ; method: β-galactosidase ; value: <0.0012 µM
C/C=C/CSc1cc(NC(=S)c2ccsc2C)ccc1Cl ; strain: Oxathiin carboxanilide-resistant RT L100I ; changes: RT-L100I ; cell line: CEM + CEM-SS ; method: cytopathic effect / XTT ; value: >2 µM

An empty or dashed field is not shown. Neighbouring rows are from separate reports.